Experimental data: PubChem BioAssay AID624099 (ICCB-Longwood, 2012)
Test: 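Host factors E2 relies on to silence an HPV18 LCR reporter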 (primary screen). Cell system: human C33A cervical carcinoma cells (HPV-negative) stably expressing BPV1 E2 and an HPV18 LCR luciferase reporter. Reagents: siRNA pool against human genes, 40 nM. Timing: 72 h. Detection: 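Per-well luciferase luminescence, z-scored on each plate against the plate mean and SD with control wells left out, then averaged across three replicate plates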. Reading the numbers: mean z-score and z-score: higher = stronger reporter signal, weaker E2 silencing. Call rule: 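Mean z ≥ 2 together with z ≥ 2 in two or more of the three replicates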.
This is a random part of about 21,000 reagents. In the full data, 497 (2.4%) are marked active. 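Higher z means weaker E2 silencing; only reporter increases were scored, and knock-downs that hurt cell survival may mask genuine repressor factors.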 A number with no mark means an inactive call.

| target gene | mean z-score | z-score, replicate A | z-score, replicate B | z-score, replicate C |
| --- | --- | --- | --- | --- |
| SLC1A7 | 0.12 | -0.16 | 0.29 | 0.24 |
| DUOXA2 (dual oxidase maturation factor 2) | 0.25 | 0 | 0.24 | 0.51 |
| THBS1 (thrombospondin 1) | 0.67 | 0.78 | 0.68 | 0.55 |
| ATRN (attractin) | -0.27 | -0.34 | -0.03 | -0.42 |
| GCDH (glutaryl-CoA dehydrogenase) | 1.52 | 1.24 | 1.85 | 1.47 |
| CHRNA1 (cholinergic receptor nicotinic alpha 1 subunit) | -0.01 | 0.27 | -0.02 | -0.28 |
| SYT11 (synaptotagmin 11) | -0.14 | 0.31 | -0.3 | -0.41 |
| GP6 (glycoprotein VI platelet) | -0.07 | 0.16 | -0.11 | -0.25 |
| MYB (MYB proto-oncogene, transcription factor) | -0.6 | -0.43 | -0.5 | -0.88 |
| VAT1L (vesicle amine transport 1 like) | 0.45 | 0.58 | 0.81 | -0.04 |
| OR2J2 (olfactory receptor family 2 subfamily J member 2) | -1.28 | -1.29 | -1.5 | -1.05 |
| MARVELD3 (MARVEL domain containing 3) | 1.21 | 1.26 | 0.69 | 1.67 |
| DPPA3P1 (DPPA3 pseudogene 1) | 1.04 | 1.21 | 1.08 | 0.84 |
| CAB39 (calcium binding protein 39) | -1.16 | -0.96 | -0.84 | -1.67 |
| BEGAIN (brain enriched guanylate kinase associated) | -2.01 | -2.08 | -1.83 | -2.13 |
| MOGAT3 (monoacylglycerol O-acyltransferase 3) | 0.81 | 0.9 | 0.78 | 0.74 |
| OR2L2 (olfactory receptor family 2 subfamily L member 2) | 0.21 | 0.32 | 0.46 | -0.15 |
| PPP1CA (protein phosphatase 1 catalytic subunit alpha) | 1.41 | 1.37 | 1.47 | 1.4 |
| CFAP418 (cilia and flagella associated protein 418) | -1.76 | -1.79 | -1.8 | -1.7 |
| MPZ (myelin protein zero) | 0.25 | 0 | 0.35 | 0.41 |
| ARNT (aryl hydrocarbon receptor nuclear translocator) | 0.38 | 0.23 | 0.48 | 0.43 |
| AURKAIP1 (aurora kinase A interacting protein 1) | 0.15 | 0.28 | 0.08 | 0.1 |
| TTC32 (tetratricopeptide repeat domain 32) | -0.17 | -0.34 | -0.23 | 0.06 |

Reformatted: results already given
target gene	mean z-score	z-score, replicate A	z-score, replicate B	z-score, replicate C
CHRNA1 (cholinergic receptor nicotinic alpha 1 subunit)	-0.01	0.27	-0.02	-0.28
SYT11 (synaptotagmin 11)	-0.14	0.31	-0.3	-0.41
